Measured values from several laboratories, pooled; numbers as filed in NIAID ChemDB.

All rows: target-level tests

Neighbouring rows are from separate reports. Inhibition is in % at the dose shown (toxicity tests: loss of growth or viability). Fold resistance: result on the changed form divided by that on wild type. ICn is the concentration giving n% inhibition. Blank or dashed fields: not listed here.

compound	protein	mutations	species	dose	strain	endpoint	read by	result
O=C(C1CCCCC1)N1C[C@H](CN2CCC(c3ccccc3)CC2)[C@@H](c2ccccc2)C1	CCR5	CCR5-Y37A				fold resistance	radiometric	5.65
O=C(O)C(Cl)P(=O)(O)O	DNA polymerase		Herpes simplex virus 1	100 µM		inhibition		96%
O=C(CN1C(=O)SC(=Cc2ccccc2Br)C1=O)N1CCN(c2ccccc2)CC1	Falcipain-2		Plasmodium falciparum			IC50	fluorescence	23.88 µM
O=C(O)c1sc(-c2ccccc2)cc1NS(=O)(=O)c1ccccn1	NS3 ATPase		Hepatitis C virus			IC50		>20 µM
O=C(NCc1ccc(Cl)cc1F)Nc1cscc1-c1nc(C(=O)O)c(O)c(=O)[nH]1	HCV polymerase		Hepatitis C virus			IC50		<25 µM
CC1(C)C2CC[C@@H](CNc3nnc(NC(=O)c4cc(F)cc(F)c4)s3)C1C2	Polymerase		Human cytomegalovirus			IC50		>25 µM
O=C(O)c1c[nH]c(=S)[nH]c1=O	Uracil phosphoribosyltransferase		Toxoplasma gondii		RH	Ki		1100 µM
O=P(O)(O)C(Cl)(Br)P(=O)(O)O	DNA polymerase		Herpes simplex virus 2			IC50		>100 µM
CO[P@](=O)(c1cc(C)cc(/C=C/C#N)c1)c1c(C(N)=O)[nH]c2ccc(Cl)c(F)c12	Reverse transcriptase	Y181C	HIV			IC50		0.526 µM
O=C(c1ccccc1Cl)N1C[C@H](CN2CCC(O)(CCCc3ccc(-c4nn[nH]n4)cc3)CC2)[C@@H](c2ccccc2)C1	CCR5	CCR5-E283A				IC50	radiometric	>10 µM
CC(C)c1cc(C(C)C)c(C(=O)Nc2nnc(NCCC(=O)OC(C)(C)C)s2)c(C(C)C)c1	Polymerase		Human cytomegalovirus			IC50		>25 µM
CN(CC(C)(CCN1CCC(N(CCO)C(=O)OCc2ccc([N+](=O)[O-])cc2)CC1)c1ccsc1)S(=O)(=O)c1ccccc1	CCR5	CCR5-Y251A				fold resistance	radiometric	25.5
O=C(Nc1nnc(NCCc2cccs2)s1)c1cc2ccccc2s1	Polymerase		Human cytomegalovirus			IC50		>25 µM
CC(=O)OC1C=COC=C2CC34SSC5(CC6=COC=CC(OC(C)=O)C6N5C3=O)C(=O)N4C21	RNA polymerase		Coxsackie virus		TYPE A21	IC50		0.1 µg/mL
O=C(Nc1ccsc1-c1nc(C(=O)O)c(O)c(=O)[nH]1)OCCc1ccc2ccccc2c1	HCV polymerase		Hepatitis C virus			IC50		<25 µM
Cc1cc(=O)[nH]c(=O)[nH]1	Uracil phosphoribosyltransferase		Toxoplasma gondii	2000 µM	RH	inhibition		<5%
O=C(Nc1nnc(NCc2ccc3c(c2)OCO3)s1)c1ccc(I)cc1	Polymerase		Human cytomegalovirus			IC50		>25 µM
CCN(C(=O)CCC1CCCC1)c1cc(-c2ccccc2)sc1C(=O)O	NS3 ATPase		Hepatitis C virus			IC50		<5 µM
CC1(C)C2CC[C@@H](CNc3nnc(NC(=O)c4ccc([N+](=O)[O-])o4)s3)C1C2	Polymerase		Human cytomegalovirus			IC50		>25 µM
CC(=O)OC1C=COC=C2C[C@@]34SSSS[C@]5(CC6=COC=CC(OC(C)=O)C6N5C3=O)C(=O)N4C21	RNA polymerase		Coxsackie virus		TYPE A21	IC50		0.2 µg/mL
O=c1cc[nH]c(=O)o1	Uracil phosphoribosyltransferase		Toxoplasma gondii	2000 µM	RH	inhibition		<5%
CC(=O)OC1C=COC=C2C[C@@]3(O)C(=O)N4C5C(=COC=CC5OC(C)=O)C[C@@]4(S)C(=O)N3C21	RNA polymerase		Coxsackie virus		TYPE A21	IC50		121 µg/mL
CC(F)(C(=O)O)P(=O)(O)O	DNA polymerase		Epstein-Barr virus	100 µM		inhibition		42%
Cc1ccccc1S(=O)(=O)Nc1cc(-c2ccc(S(C)(=O)=O)cc2)sc1C(=O)O	NS3 ATPase		Hepatitis C virus			IC50		<5 µM
CCc1c[nH]c(=O)[nH]c1=O	Uracil phosphoribosyltransferase		Toxoplasma gondii	2000 µM	RH	inhibition		<5%
COc1cc(OC)c(C=C2SC(=O)NC2=O)c(OC)c1	Falcipain-2		Plasmodium falciparum			IC50	fluorescence	47.84 µM
O=C(O)C(Br)P(=O)(O)O	DNA polymerase		Epstein-Barr virus			IC50		25 µM
O=C(Nc1cc(-c2ccccc2)sc1C(=O)O)c1ccccc1Br	NS3 ATPase		Hepatitis C virus			IC50		<5 µM
c1ccc(C2SCc3nc4ccccc4n32)cc1	Reverse transcriptase	RT-Y181I Y188L	HIV			IC50		>50 µM
COc1cc(OC)c(C=C2SC(=O)N(Cc3ccc(C(F)(F)F)cc3)C2=O)c(OC)c1	Falcipain-2		Plasmodium falciparum			IC50	fluorescence	>50 µM
On1ccccc1=S	Uracil phosphoribosyltransferase		Toxoplasma gondii		RH	Ki		1600 µM
O=C(Nc1ccsc1-c1nc(C(=O)O)c(O)c(=O)[nH]1)OCC1c2ccccc2-c2ccccc21	HCV polymerase		Hepatitis C virus			IC50		<25 µM
CCOc1ccc2ccccc2c1C(=O)Nc1nnc(NCCNC(C)=O)s1	Polymerase		Human cytomegalovirus			IC50		>25 µM
O=C1C2CC3=COC=CC(O)C3N2C(=O)C2=CC3=COC=CC(O)C3N12	RNA polymerase		Coxsackie virus		TYPE A21	IC50		0.00009 µg/mL
Cc1nc(-c2nc(C(=O)O)c(O)c(=O)[nH]2)cs1	HCV polymerase		Hepatitis C virus			IC50		<100 µM
O=C(CN1C(=O)SC(=Cc2cccc(OC(F)(F)F)c2)C1=O)N1CCN(c2ccccc2)CC1	Falcipain-2		Plasmodium falciparum			IC50	fluorescence	44.97 µM
O=C(NCc1cccs1)Nc1ccsc1-c1nc(C(=O)O)c(O)c(=O)[nH]1	HCV polymerase		Hepatitis C virus			IC50		<25 µM
CC(C)C[C@H](NC(=O)[C@@H]1O[C@H]1C(=O)O)C(=O)NCCCCN=C(N)N	Falcipain-2		Plasmodium falciparum			IC50	fluorescence	0.047 µM
Cc1cn([C@@H]2O[C@H](CO[Si](C)(C)C(C)(C)C)C3(OS(=O)(=O)C=C3N)[C@H]2O[Si](C)(C)C(C)(C)C)c(=O)n(C)c1=O	Reverse transcriptase	RT-P95A	HIV			fold resistance	nucleotide incorporation / radiometric	0.57
Nc1[nH]c(=S)[nH]c(=O)c1N=O	Uracil phosphoribosyltransferase		Toxoplasma gondii		RH	IC50		>2000 µM
O=C(O)CP(=O)(O)O	DNA polymerase		Epstein-Barr virus			IC50		1.6 µM
CC(=O)OC1C=COC=C2C[C@@]3(S)C(=O)N4C5C(=COC=CC5OC(C)=O)C[C@@]4(S)C(=O)N3C21	RNA polymerase		Coxsackie virus		TYPE A21	IC50		5.5 µg/mL
CCOc1ccc2ccccc2c1C(=O)Nc1nnc(NCc2ccc(S(N)(=O)=O)cc2)s1	Polymerase		Human cytomegalovirus			IC50		<25 µM
Cc1cn([C@@H]2O[C@H](CO[Si](C)(C)C(C)(C)C)[C@@]3(OS(=O)(=O)C=C3N)[C@H]2O[Si](C)(C)C(C)(C)C)c(=O)[nH]c1=O	Reverse transcriptase	RT-N137Y	HIV			IC50	nucleotide incorporation / radiometric	0.41 µM
CCCCCCCC/C=C/CCCCCCCC(=O)Nc1nnc(NCc2ccc(OC)c(OC)c2)s1	Polymerase		Human cytomegalovirus			IC50		<25 µM
CC[C@H]1C(=O)Nc2ccc(F)cc2N1C(=O)OC(C)C	Reverse transcriptase	RT-N137H	HIV			fold resistance	nucleotide incorporation / radiometric	1

The last 3 rows once more:

compound	protein	mutations	species	dose	strain	endpoint	read by	result
Cc1cn([C@@H]2O[C@H](CO[Si](C)(C)C(C)(C)C)[C@@]3(OS(=O)(=O)C=C3N)[C@H]2O[Si](C)(C)C(C)(C)C)c(=O)[nH]c1=O	Reverse transcriptase	RT-N137Y	HIV			IC50	nucleotide incorporation / radiometric	0.41 µM
CCCCCCCC/C=C/CCCCCCCC(=O)Nc1nnc(NCc2ccc(OC)c(OC)c2)s1	Polymerase		Human cytomegalovirus			IC50		<25 µM
CC[C@H]1C(=O)Nc2ccc(F)cc2N1C(=O)OC(C)C	Reverse transcriptase	RT-N137H	HIV			fold resistance	nucleotide incorporation / radiometric	1